Our source for the Km and Vmax values is article PMC3872143.

This data set concerns NNC(=O)c1ccncc1. Nature of the data set: purified protein.

Take “Mycobacterium tuberculosis catalase-peroxidase (KatG) (Mycobacterium tuberculosis H37Rv)”: the Michaelis-Menten constant (Km) came out at 192 ± 8 µM and the Vmax came to 1.52 µM/min.

The term Km denotes the substrate concentration at which the rate is half of its maximum. One may read the Vmax as the top rate of the reaction or transport when substrate is in excess.
